A mixed list of measured activities; the numbers were collected in NIAID ChemDB.

Shared fields: whole-cell or culture tests; species: Mycobacterium kansasii; measure: MIC

An empty or dashed field is not shown.

structure | strain | method | setting | value
N/C(=N\N=C\c1ccccc1O)SCc1ccc(Cl)cc1 | ATCC 12478 | broth dilution | 14 d | 32 µM
O=C(N[C@@H](Cc1ccccc1)c1cnc(-c2ccc([N+](=O)[O-])cc2)[nH]1)OCc1ccccc1 | My 6509/96 |  | 14 d | 16 µM
O=C(Nc1ccc(Br)cc1)c1ccc(Br)cc1OS(=O)(=O)c1ccccc1 | 235/80 |  | 14 d | 16 µM
O=C(Oc1ccc(Cl)cc1)c1cnccn1 | 235/80 |  | 7 d | 250 µM
O=C(OCc1ccccc1)N1CCC[C@H]1c1cnc(-c2ccccc2)[nH]1 | My 6509/96 |  | 14 d | 62.5 µM
O=C(Oc1ccc(Cl)cc1C(=O)Nc1ccc(F)cc1)c1cnccn1 | 235/80 |  | 7 d | 4 µM
N/C(=N\N=C\c1cc(Cl)cc(Cl)c1O)SCc1ccc(Br)cc1 | ATCC 12478 | broth dilution | 14 d | 32 µM
O=C(Oc1cc(Cl)ccc1C(=O)Nc1ccc(F)cc1)c1ccccc1 | 6509/96 | broth dilution | 21 d | 8 µM
Cc1ccc(CS/C(N)=N/N=C/c2ccccc2)cc1 | ATCC 12478 | broth dilution | 14 d | 62.5 µM
CC[C@@H](C)[C@H](NC(=O)OCc1ccccc1)c1cnc(-c2ccc([N+](=O)[O-])cc2)[nH]1 | My 6509/96 |  | 21 d | 32 µM
O=C(Oc1cc(Cl)ccc1C(=O)Nc1ccc(C(F)(F)F)cc1)c1ccccc1 | 6509/96 | broth dilution | 7 d | 1 µM
Nc1ccc(C(=O)O)c(O)c1 | 235/80 |  | 7 d | 125 µM
Cc1ccc(-n2c(=S)oc3ccc(F)cc3c2=S)cc1 | 6509/96 |  | 14 d | 2 µM
O=C(Nc1ccc(Br)cc1)c1cc(Cl)ccc1OS(=O)(=O)c1ccccc1 | 235/80 |  | 7 d | 8 µM
O=C(Oc1cc(Cl)ccc1C(=O)Nc1ccc(Cl)cc1)c1ccccc1 | 6509/96 | broth dilution | 21 d | 4 µM
O=C(Oc1cc(Cl)ccc1C(=O)Nc1ccc(Cl)c(Cl)c1)c1cnccn1 | 235/80 |  | 21 d | 8 µM
S=c1oc2ccc(Br)cc2c(=S)n1-c1ccccc1 | My 235/80 |  | 14 d | 2 µM
O=C(Oc1cc(Cl)ccc1C(=O)Nc1cccc(Br)c1)c1ccccc1 | 6509/96 | broth dilution | 7 d | 2 µM
CC(C)[C@H](NC(=O)OCc1ccccc1)c1cnc(-c2ccccc2)[nH]1 | My 235/80 |  | 14 d | 62.5 µM
N/C(=N\N=C\c1ccccc1)SCc1ccc(C(F)(F)F)cc1 | ATCC 12478 | broth dilution | 14 d | 62.5 µM
COc1ccc2oc(=O)n(-c3ccc(C)cc3)c(=S)c2c1 | My 235/80 |  | 21 d | 16 µM
O=C(Oc1cc(Cl)ccc1C(=O)Nc1ccc(Br)cc1)c1ccccc1 | 6509/96 | broth dilution | 7 d | 2 µM
O=C(Oc1cc(Cl)ccc1C(=O)Nc1cccc(F)c1)c1cnccn1 | 6509/96 |  | 14 d | 4 µM
FC(F)(F)c1ccc(-n2c(=S)oc3ccc(Br)cc3c2=S)cc1 | My 235/80 |  | 14 d | 16 µM
O=C(Oc1ccc(Cl)cc1C(=O)Nc1cccc(Cl)c1)c1cnccn1 | 6509/96 |  | 7 d | 2 µM
N/C(=N\N=C\c1cc(Br)ccc1O)SCc1ccc(F)cc1 | 6509/96 | broth dilution | 14 d | 32 µM
CC[C@@H](C)[C@H](NC(=O)OCc1ccccc1)c1cnc(-c2ccccc2)[nH]1 | My 235/80 |  | 14 d | 62.5 µM
Fc1ccc2oc(=S)n(-c3ccc(Cl)cc3)c(=S)c2c1 | 6509/96 |  | 14 d | 4 µM
N/C(=N\N=C\c1cc(Cl)ccc1O)SCc1ccc(Cl)cc1 | 6509/96 | broth dilution | 14 d | 32 µM
O=C(Oc1cc(Cl)ccc1C(=O)Nc1cccc(Cl)c1)c1cnccn1 | 235/80 |  | 7 d | 2 µM
O=C(Nc1cccc(Cl)c1)c1cc(Cl)ccc1OS(=O)(=O)c1ccccc1 | 235/80 |  | 21 d | 16 µM
O=C(Oc1cc(Cl)ccc1C(=O)Nc1cccc(Cl)c1)c1ccccc1 | 6509/96 | broth dilution | 7 d | 4 µM
O=C(Nc1ccc(F)cc1)c1ccc(Cl)cc1OS(=O)(=O)c1ccccc1 | 235/80 |  | 21 d | 32 µM
C[C@@H](NC(=O)OCc1ccccc1)c1cnc(-c2ccccc2)[nH]1 | My 6509/96 |  | 21 d | 125 µM
O=C(Nc1ccc(Cl)c(Cl)c1)c1cc(Cl)ccc1OS(=O)(=O)c1ccccc1 | 235/80 |  | 21 d | 8 µM
N/C(=N\N=C\c1ccccc1)SCc1cccc(Cl)c1 | ATCC 12478 | broth dilution | 14 d | 62.5 µM

Conditions beyond the fields shown may differ between rows.